The target of this assay is HCV NS5B RNA-dependent RNA polymerase (1b-BKΔ55) (Hepatitis C virus genotype 1b, UniProt P26663). Briefly: Inhibition of HCV NS5B polymerase by nucleoside triphosphate analogs (radiolabeled nucleotide incorporation assay). It is filed as biochemical. Conditions: read-out: NTP Ki; Ki of the NTP analog, from NS5B IC50 by Cheng-Prusoff.

Protein sequences, listed by entry. Tags and fused reporters are not part of them. Lines headed by an entry give the natural chain unless they say otherwise; changes in a name come on top. Residues count along the entry.
UniProt P26663, 2420-2955 limits assumed, stated change not applied: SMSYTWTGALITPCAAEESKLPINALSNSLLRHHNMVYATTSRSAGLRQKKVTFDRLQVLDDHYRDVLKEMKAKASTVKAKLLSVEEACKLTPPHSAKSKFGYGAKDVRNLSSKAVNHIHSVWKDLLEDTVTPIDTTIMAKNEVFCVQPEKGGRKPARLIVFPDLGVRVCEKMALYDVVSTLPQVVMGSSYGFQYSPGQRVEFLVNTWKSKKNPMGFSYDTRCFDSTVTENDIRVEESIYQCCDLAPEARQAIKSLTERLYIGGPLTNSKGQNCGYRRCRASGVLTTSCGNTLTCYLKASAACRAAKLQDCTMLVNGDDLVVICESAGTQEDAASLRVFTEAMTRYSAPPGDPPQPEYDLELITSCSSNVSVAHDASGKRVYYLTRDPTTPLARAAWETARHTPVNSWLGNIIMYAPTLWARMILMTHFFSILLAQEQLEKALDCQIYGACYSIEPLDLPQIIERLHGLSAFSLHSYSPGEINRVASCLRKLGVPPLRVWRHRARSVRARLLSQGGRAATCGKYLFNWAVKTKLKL

The structures appear in SMILES notation.

The source of these data is patent publication US9150603B2, “2′-cyano substituted nucleoside derivatives and methods of use thereof useful for the treatment of viral diseases” (priority 2011, dated 2015).

With `CC(C)OP1(=O)OC[C@H]2O[C@@H](n3ccc(=O)[nH]c3=O)[C@](C)(C#N)[C@@H]2O1` (some centres unmarked), the Ki (as a rule, a dissociation constant, usually derived from enzyme kinetics or from competition with a known ligand) was 300 nM.
Under `CCOc1nc(N)nc2c1ncn2[C@@H]1O[C@@H]2COP(=O)(OC3CCC3)O[C@H]2[C@@]1(C)C#N` (some centres unmarked) stands 100 nM.
